This is a selection; strong and weak results do not stand in their true shares. Records with an inconclusive call do not appear. Active and inactive are the calls of the source. Calls come from the whole dose curve; as a rule, active = well fitted inhibition curve with a large enough effect; inconclusive = small, poorly fitted or top-dose-only effect, or another doubt; inactive = no such curve, though single readings can be large or run the other way.
% is set by controls: 0 for no effect and ±100 for the full control effect.

The nature of this assay: qHTS Assay for Inhibitors of Hepatitis C Virus (HCV). To be noted: Huh7.5.1 HCVcc-Cre (HCVcc is cell-culture hepatitis C virus) infection, luciferase reporter, 44 h; at 41.8 µM (top of the series). From the text: Hepatitis C virus (HCV) infects about 200 million people in the world. Many infected people progress to chronic liver disease including cirrhosis with a risk of developing liver cancer. To date, there is no effective vaccine for hepatitis C. Current therapy based on interferon is only effective in about half of the patients and is associated with significant adverse effects. The fraction of people with HCV who can complete a successful treatment is estimated to be no more than 10 percent. Recent development of direct-acting antivirals against HCV, such as protease and polymerase inhibitors, is promising but still requires combination with peginterferon and ribavirin for maximal efficacy. In addition, these agents are associated with high rate of resistance and many have significant side effects. Due to the lack of a culture system for infectious HCV, the search for new HCV drugs has been greatly hampered. […]
The assay will start with plating 1,000 cells/well in 3 µL volume and culture for 4 h. […] A volume of 4.5 µL luciferase substrates will be added to each well and the plates will be incubated at room temperature for 15 min. and then read for 15 sec. for the luciferase activity
Background: In qHTS, concentration-response curves come from the screen itself.
For the compound `COc1ccccc1CNC(=O)COC(=O)C(O)(c1ccccc1)c1ccccc1`, the activity change, negative = inhibition was inactive: 21.8%.
